Patent US12194140B2, “Compositions for topical treatment of microbial infections” (Hennepin Life Sciences, priority 2012, dated 2025)

Key:
[1] = system: streptococcal pyrogenic exotoxin A (SPE A) production by S. pyogenes; test: Inhibition of superantigen production (Western immunoblot); conditions: 8 hours culture; not growth inhibitory
[2] = system: TSST-1 production by S. aureus MN8; test: as above; conditions: 8 hours culture; not growth inhibitory
[3] = system: exotoxin production of Staphylococcus aureus, Streptococcus pyogenes, Streptococcus agalactiae, groups C, F, and G streptococci, and Clostridium perfringens; test: Inhibition of exotoxin production in gram-positive bacteria; conditions: all gram-positive organisms tested
P. aeruginosa = conditions: GML >2000 μg/ml, pH 7.0

Row | Compound | concentration inhibiting production of SPE A [1] [µg/mL] | concentration inhibiting production of TSST-1 [2] [µg/mL] | exotoxin production [3] | production of virulence factors (P. aeruginosa) | development of resistance (growth on 100 μg/mL GML plates) (S. aureus strain MN8; weekly passage on 50 μg/mL GML for one year) | mutants with upregulated GEH production (S. aureus strain MN8; year of passage, data not shown)
1 | CCCCCCCCCCCC(=O)O | 2.5 | 2.5 |  |  |  | 
2 | Glycerol monolaurate | 0.025 | 0.2 | inhibited exotoxin production independently from inhibition of growth | up-regulated production of numerous virulence factors including pigments | did not develop resistance | no mutants that had upregulated GEH production
